Pooled drug test results. Numbers come from NIAID ChemDB, via PubChem.

Common to all: whole-cell or culture tests; species: Candida albicans; endpoint: MIC

Rows are shuffled and stem from different studies.

compound,strain,method,conditions,result
CCCCCCCCCC#CCCC#CC(=O)O,ATCC 14053,,,11.5 µM
COc1ccc(C(=O)Nc2ccccc2O)cc1,,,,25 µg/mL
O=C(c1c[nH]c2ccccc12)[C@H](O)CO,ATCC 32354,turbidity,,>128 µg/mL
COc1ccc(C=Nc2ccc(S(=O)(=O)Nn3c(Cc4ccccc4Nc4c(Cl)cccc4Cl)nc4ccccc4c3=O)cc2)cc1,,broth dilution,,500 µg/mL
Clc1ccc(CO/N=C(/Cn2ccnc2)c2ccc(Cl)cc2Cl)c(Cl)c1,,,,6.25 µg/mL
CC1C(=O)CC(c2ccccc2)N(OCCc2nc3ncccc3[nH]2)C1c1ccccc1,51 (NCIM-C27),,,50 µg/mL
N#CC1=C(N)OC2=C(CSc3ccccc32)C1c1ccc2c(c1)OCO2,,,,50 µg/mL
O=C(CSc1nnc(-c2ccc3ncccc3c2)o1)Nc1nc2ccc(Cl)cc2s1,,agar,,100 µg/mL
Clc1ccc(CSc2ccccc2Cn2ccnc2)c(Cl)c1,,,,>100 µg/mL
CC1=C(Sc2ccc(Cl)cc2)C(=O)c2sc(C)nc2C1=O,ATCC20231,,,100 µg/mL
CCCCCCCC[n+]1cccc(/C=C/C(=O)c2ccc(OC)cc2)c1,,,,<7.26 µg/mL
O=c1c2ccccc2cnn1CCc1n[nH]c(=S)n1-c1ccccc1,ATCC 10231,,,512 µg/mL
COc1ccc(-c2nnc(/N=C3\NC(=O)/C(=C4/C(=O)N(C)c5ccccc54)S3)o2)cc1,ATCC 10231,,,8 µg/mL
O=c1c2ccccc2cnn1CCc1n[nH]c(=S)n1-c1ccc(Cl)cc1,ATCC 10231,,,512 µg/mL
Fc1ccc(CCCCn2c3c(c4cc(F)ccc42)CNCC3)cc1,OY3-55,,,0.5 µg/mL
Nc1[nH]c(=O)ncc1F,B311 (drug-resistant),,,0.015 µg/mL
Cn1nc2ccc(NC(=O)c3ccc([N+](=O)[O-])cc3)cc2n1,ATCC 10231,,,100 µg/mL
COc1ccc(-c2nnc(Nc3nc(O)c(C4=c5cc([N+](=O)[O-])ccc5=NC4=O)s3)o2)cc1,ATCC 10231,,,16 µg/mL
CCOc1ccc2nc(NC(=O)CSc3nnc(-c4ccc5ncccc5c4)o3)sc2c1,,agar,,12.5 µg/mL
O=C1N=c2ccc(F)cc2=C1c1sc(Nc2nnc(-c3ccc(Cl)cc3)o2)nc1O,ATCC 10231,,,16 µg/mL
CCOC(=O)Nc1ccc2nn(C)nc2c1,ATCC 10231,,,100 µg/mL
CC1=C(Sc2ccc(F)cc2F)C(=O)c2sc(C)nc2C1=O,ATCC20231,,,50 µg/mL
O=c1c2ccccc2cnn1Cc1nnc(Nc2ccccc2)s1,ATCC 10231,,,512 µg/mL
O=C(CSc1nnc(-c2ccc3ncccc3c2)o1)Nc1ccc(F)cc1,,agar,,100 µg/mL
N#CC1=C(N)OC2=C(CSc3ccc(Cl)cc32)C1c1ccc2c(c1)OCO2,,,,25 µg/mL
CCCOC(=O)CC(c1nccn1C)c1nccn1C,ATCC 10231,broth dilution,24 h,>512 µg/mL
COc1ccc(SC2=C(O)C(=O)c3nc(C)sc3C2=O)cc1,ATCC20231,,,>100 µg/mL
O=C(Cc1ccc(Br)cc1)Nc1cc(Cl)ccc1O,,,,25 µg/mL
CC(N1CCN(c2ccc(-n3cnnn3)cc2)C1=O)[C@](O)(Cn1cncn1)c1ccc(F)cc1F,Azole-resistant,,,2 µg/mL
O=C1N=c2ccc(OC(F)(F)F)cc2=C1c1sc(Nc2nnc(-c3ccccc3)o2)nc1O,ATCC 10231,,,16 µg/mL
COc1ccc(-n2c(CCn3ncc4ccccc4c3=O)n[nH]c2=S)cc1,ATCC 10231,,,64 µg/mL
CCCCCCCCCCCC[n+]1cccc(/C=C/C(=O)c2ccc(OC)cc2)c1,,,,<7.73 µg/mL
Cn1nc2ccc(NC(=O)c3ccccc3)cc2n1,ATCC 10231,,,100 µg/mL
O=C1CC(c2ccc(Cl)cc2)N(OCCc2nc3ncccc3[nH]2)C(c2ccc(Cl)cc2)C1,NCIM-C27,,,50 µg/mL
COc1nc2c(c(-c3ccc4ccccc4c3)c1C#N)CSc1ccc(Cl)cc1-2,,,,50 µg/mL
O=c1c2ccccc2cnn1CCc1n[nH]c(=S)n1CCc1ccccc1,ATCC 10231,,,256 µg/mL
COc1ccc(C(=O)Nc2cc(C)ccc2O)c(OC)c1,,,,25 µg/mL
Cn1ccnc1Cc1nccn1C,ATCC 10231,broth dilution,24 h,500 µg/mL
Cc1c(O)cccc1C(=O)N[C@@H](CSc1ccccc1)[C@H](O)CN1C[C@H]2CCCC[C@H]2C[C@H]1C(=O)NC(C)(C)C,I36,,,64 µg/mL
CCc1nc(CCC(=O)O)cnc1CCC(=O)O,ATCC 10231,turbidity,,>128 µg/mL
COc1ccc(C(=O)/C=C/c2ccccn2)cc1,,,,15.9 µg/mL
Cc1nc2c(s1)C(=O)C(Sc1ccc3ccccc3c1)=C(O)C2=O,ATCC20231,,,>100 µg/mL
CCCCCCCCCC[n+]1ccc(/C=C/C(=O)c2ccc(OC)cc2)cc1,,,,<6.87 µg/mL
Cn1ccnc1C(=O)c1nccn1C,ATCC 10231,broth dilution,24 h,>512 µg/mL
C[C@H]1[C@H](O)[C@@H](C)/C=C/C=C/C=C/C=C/C=C/C=C/C=C/[C@H](O[C@@H]2O[C@H](C)[C@@H](O)[C@H](N)[C@@H]2O)C[C@@H]2O[C@](O)(C[C@@H](O)C[C@@H](O)CC[C@H](O)[C@@H](O)C[C@@H](O)CC(=O)O[C@H]1C)C[C@H](O)[C@H]2C(=O)O,ATCC64553,,,0.5 µg/mL
O=c1[nH]cc(F)c(=O)[nH]1,BC759,,,1 µg/mL
CC1CC2=C(O1)c1ccccc1C(=O)C2=O,1,broth dilution,,16 µg/mL
COc1ccccc1C(=O)/C=C/c1ccncc1,,,,15.5 µg/mL
OC(Cn1cncn1)(Cn1cncn1)c1ccc(F)cc1F,3532-K31,,,12.5 µg/mL
COc1ccc(C2CC(=O)C(C)C(c3ccc(OC)cc3)N2OCCc2nc3ncccc3[nH]2)cc1,NCIM-C27,,,25 µg/mL
CCCCCCC#CCCCCCC#CC(=O)O,ATCC 60913,,,2235 µM
O=c1c2ccccc2cnn1CCc1n[nH]c(=S)n1Cc1ccccc1,ATCC 10231,,,64 µg/mL
O=C(CSc1nnc(-c2ccc3ncccc3c2)o1)Nc1ccc([N+](=O)[O-])cc1,,agar,,100 µg/mL
CCCCCCCC[n+]1cccc(/C=C/C(=O)c2ccccc2OC)c1,,,,<7.34 µg/mL
COc1ccc(-c2nnc(Nc3nc(O)c(C4=c5cc(C)ccc5=NC4=O)s3)o2)cc1,ATCC 10231,,,16 µg/mL
C[C@H](N)C(=O)NC(C(=O)O)n1cc(F)c(=O)[nH]c1=O,3153A,,,25 µg/mL
C=CC1=CC[C@H]2[C@@H](C[C@H]3OC(=O)[C@@]4(C)[C@@H](O)CC[C@@]2(C)[C@@]34O)[C@H]1C,,,,8 µg/mL
c1ccc(CSc2ccccc2Cn2ccnc2)cc1,,,,25 µg/mL
COc1ccc(C2CC(=O)CC(c3ccc(OC)cc3)N2OCCc2nc3ncccc3[nH]2)cc1,51 (NCIM-C27),,,100 µg/mL
COc1ccc(C2C(C#N)=C(N)OC3=C2CSc2ccccc23)cc1OC,,,,25 µg/mL
CC(Sc1ccccc1Cn1ccnc1)c1ccc(Cl)c(Cl)c1,,,,>100 µg/mL
Cn1ccnc1C(CC(=O)O)c1nccn1C,ATCC 10231,broth dilution,48 h,>512 µg/mL
O=C1N=c2ccc(S(=O)(=O)[O-])cc2=C1c1sc(Nc2nnc(-c3ccccc3)o2)nc1O,ATCC 10231,,,16 µg/mL
O=C(Nc1ccc2nn(C3CCCCC3)nc2c1)C(Cl)Cl,ATCC 10231,,,25 µg/mL
COc1ccc(-c2nnc(Nc3nc(O)c(C4=c5ccccc5=NC4=O)s3)o2)cc1,ATCC 10231,,,16 µg/mL
COc1ccccc1C(=O)/C=C/c1cccnc1,,,,15 µg/mL

The last 6 rows once more:

compound	strain	method	conditions	result
CC(Sc1ccccc1Cn1ccnc1)c1ccc(Cl)c(Cl)c1				>100 µg/mL
Cn1ccnc1C(CC(=O)O)c1nccn1C	ATCC 10231	broth dilution	48 h	>512 µg/mL
O=C1N=c2ccc(S(=O)(=O)[O-])cc2=C1c1sc(Nc2nnc(-c3ccccc3)o2)nc1O	ATCC 10231			16 µg/mL
O=C(Nc1ccc2nn(C3CCCCC3)nc2c1)C(Cl)Cl	ATCC 10231			25 µg/mL
COc1ccc(-c2nnc(Nc3nc(O)c(C4=c5ccccc5=NC4=O)s3)o2)cc1	ATCC 10231			16 µg/mL
COc1ccccc1C(=O)/C=C/c1cccnc1				15 µg/mL

Blank or dashed fields: not listed here.